Percent effect of library compounds

Source: ChEMBL document CHEMBL3988442, “University of Dundee, Small-Polar-MMV Screening Library” (2021).

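Whole-cell growth test on Mycobacterium tuberculosis, read after 3 days in glucose-containing 7H9 medium; the read-out is not stated. Concentration: 500 µM. Higher reads as more growth inhibition (inferred: compounds with an IC50 in retests scored well above the rest). Of about 18,000 compounds tested this way, about 1,400 (7.9%) reached 50% or more in at least one test.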

Each number is a percent effect as filed.
The record does not define 0% and 100%; most values in the screen are far below 50% and negative numbers occur (in some assays of this library far below -100).
Many other results are left out here, so strong results are more common than in the screen.

SMILES,percent effect
CC(C)CN1C(=O)c2cccn2CC1CN (stereo not drawn),34.03
O=C(NC1(c2nnc[nH]2)CCC1)c1ccc(Cl)cn1,-1.774
COc1cccc(C(C)N2CCCN(C(N)=O)CC2)c1 (stereo not drawn),1.837
CNCC(O)CN1CCc2ccccc2CC1 (stereo not drawn),87.09
CCN(CC)C(=O)CNc1ccc(Cl)c(C#N)n1,0.7009
Cc1ccc(OCC(=O)NC2CCS(=O)(=O)C2)c(Br)c1 (stereo not drawn),9.943
COC(=O)CN(CCc1ccccc1)C(C)=O,5.455
O=S(=O)(CCN1CCCCC1)c1ccccc1,32.82
NCCc1cccs1,-1.023
O=C1COc2c(Cl)cccc21,-30.08
Cc1cc(NC(=O)NC2CCN(C3CC3)C2)no1 (stereo not drawn),14.2
CCn1ccc(C(=O)NCCSC(F)(F)F)cc1=O,9.797
C=C(C)CCOC(=O)c1cc(C(N)=O)cs1,64.29
CC(=O)Nc1nc(CN2CCn3ccnc3C2)cs1,8.425
CCC1(CO)CCCN(CCCC(N)=O)C1 (stereo not drawn),4.111
NC(=O)CSCC(=O)Nc1ccc(Cl)c(F)c1,31.11
CC(=O)NCCNCc1ccc(C#N)cc1,7.526
CC1CCCN(S(=O)(=O)N(C)Cc2cc[nH]n2)C1 (stereo not drawn),36.29
CN(Cc1ncc[nH]1)C(=O)C(O)c1cccc(Cl)c1 (stereo not drawn),14.27
CCNC(=O)CNC,-2.414
NC(CC(=O)N1CCOCC1)c1ccccc1 (stereo not drawn),-4.178
CCOC(=O)CCC(=O)c1ccc2c(c1)OCCO2,61.58
CNCc1ncnn1C,-2.241
Cc1ccc2ncc(CCN)cc2c1,47.55
CCC(NC(=O)Cc1ccccn1)c1nc(C)c[nH]1 (stereo not drawn),6.322
Fc1ccc2nc(N3CCCNCC3)oc2c1F,77.16
NC(=O)CS(=O)(=O)Cc1ccc(Cl)cc1,18.3
C[C@H](c1ccc(Cl)cc1)n1c(CCN)n[nH]c1=O,51.91
c1cc2c(cc1C1=NN=C(NC3CC3)SC1)OCCO2,82.76
COCCNCCOc1ccc(C)cc1,2.407
CCOc1cc(C(=O)NC)cc(OCC)c1OCC,16.98
CCC(CC)C(=O)NC1CCN(CC)CC1,-9.134
COc1ccc(F)c(F)c1CN1CCCC(O)(CO)C1 (stereo not drawn),25.15
CCN(C(=O)NCc1sccc1C)C(C)CS(C)(=O)=O (stereo not drawn),6.731
NS(=O)(=O)c1ccc(F)c(C(=O)NCc2ccon2)c1,-13.2
O=C(Cn1cccn1)NCCc1ccc2c(c1)OCO2,53.27
CN1N=C(C(=O)NC2CCCc3occc32)CCC1=O (stereo not drawn),23.97
N#Cc1cc(C#N)c(SCCN2CCCCC2)nc1N,2.575
CCc1nn(C)c(CC)c1S(=O)(=O)N(C)CC(C)O (stereo not drawn),1.358
NCC(=O)Nc1ccccc1,8.12
COC(=O)c1ccc(NC2CCN(C)CC2)o1,-40.44
CN(C)C(=O)C1CCCN1C(=O)c1cccc(C#N)c1 (stereo not drawn),-2.588
NC(=O)Nc1cccc(C(=O)Nc2ccc(Cl)cn2)c1,79.93
COCC(C)OC(=O)c1scnc1C (stereo not drawn),-15.01
COC(=O)N1CCC(NC(C)CCn2cccn2)CC1 (stereo not drawn),11.46
O=C(COCC(F)(F)F)NCc1ccccn1,41.3
COCc1noc(CN(C(C)C)C(C)C)n1,5.371
CCNC(=O)CNc1cc(C)c(Cl)cc1OC,56.67
O=C(CN(CCO)C1CC1)NC1CCN(C2CC2)CC1,8.928
CN(C)CCOc1ccc(NS(C)(=O)=O)cc1,-9.327
NS(=O)(=O)N1CCCC1C(=O)NC1CC1 (stereo not drawn),-6.557
O=C1CCC2(CNC(=O)C3CC3)CCCC=C2N1 (stereo not drawn),63.07
CC[C@H](C)[C@H](NC(N)=O)C(=O)Nc1ccccc1F,-15.11
CS(=O)(=O)NCCNC(=O)c1ccc2ccccc2n1,28.18
CN(C)C(=O)OC1CCNCC1,-4.282
c1cnn(CCN2CCCC2Cn2cccn2)c1 (stereo not drawn),4.229
COCCN1CCN(CCCN2CCCC2=O)CC1,-9.08
COc1ccc(CN2CCCC(CO)C2)cc1OC (stereo not drawn),-0.3077
O=C(c1cccnc1)N1CCC(N2CC=CC2)CC1,33.64
CN(C)C(=O)CCn1nc2ccccn2c1=O,18.4
COc1ccccc1CC(=O)Nc1ccon1,23.74

Once more, the final 3:

SMILES,percent effect
O=C(c1cccnc1)N1CCC(N2CC=CC2)CC1,33.64
CN(C)C(=O)CCn1nc2ccccn2c1=O,18.4
COc1ccccc1CC(=O)Nc1ccon1,23.74